# Measured values from ChEMBL document CHEMBL3430912, “GSK Tres Cantos Anti-Kinetoplastid Screening (TCAKS) Data”.
# Sequences of proteins named here, by UniProt entry; tags and fusion partners are left off.
# UniProt Q7Z1V1, whole entry: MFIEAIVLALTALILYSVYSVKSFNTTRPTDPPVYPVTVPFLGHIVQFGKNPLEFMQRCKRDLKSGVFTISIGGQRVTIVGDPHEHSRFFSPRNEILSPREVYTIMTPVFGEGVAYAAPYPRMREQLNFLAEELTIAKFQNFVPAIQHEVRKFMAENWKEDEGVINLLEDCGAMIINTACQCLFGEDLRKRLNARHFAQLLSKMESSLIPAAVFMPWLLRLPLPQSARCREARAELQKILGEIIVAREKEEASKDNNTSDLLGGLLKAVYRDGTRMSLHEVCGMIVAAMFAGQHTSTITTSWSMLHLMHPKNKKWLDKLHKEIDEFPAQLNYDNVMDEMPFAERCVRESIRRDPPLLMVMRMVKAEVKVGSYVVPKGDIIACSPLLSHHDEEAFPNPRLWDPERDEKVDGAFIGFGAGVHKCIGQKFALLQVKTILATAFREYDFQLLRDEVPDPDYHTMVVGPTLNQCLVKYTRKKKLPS
# Some compounds may have been tested in ways that are not shown here.
# Molecular target: Sterol 14-alpha demethylase (Trypanosoma cruzi (strain CL Brener), UniProt Q7Z1V1)
# Experiment: GSK_TCAKS: pIC50 CYP51 from Trypanosoma cruzi.
# Type: functional
smiles,measurement,value
CC(C)(C)c1ccc(NC2(C(N)=O)CCN(Cc3ccccc3)CC2)cc1,pIC50,5.3
